Pooled drug test results. Numbers come from NIAID ChemDB, via PubChem.

Common to all: tests in culture; organism: HIV-1; endpoint: inhibition

Rows are shuffled and stem from different studies.

{"compound": "CSC[C@H](NC(=O)COc1cccc2cnccc12)C(=O)N[C@@H](Cc1ccccc1)[C@H](O)C(=O)N1CSC(C)(C)[C@H]1C(=O)NC(C)(C)C", "dose": "0.09 µM", "cells": "ATH8", "strain or isolate": "MN", "method": "trypan blue", "value": "90%"}
{"compound": "CCCCCN1CC[C@H](c2ccc(F)cc2)[C@@H](COc2ccc3c(c2)OCCO3)C1", "dose": "4 µg/mL", "cells": "MOLT-3", "strain or isolate": "IIIB", "method": "p24", "value": "17%"}
{"compound": "CC(C)(CO)[C@@H](O)C(=O)NCCCC(=O)O", "dose": "100 µg/mL", "cells": "MT-4", "strain or isolate": "LAV", "value": "87%"}
{"compound": "N[C@@H](CCC(=O)N[C@@H](CS)C(=O)NCC(=O)O)C(=O)O", "dose": "1000 µM", "cells": "U1 (HIV-1 LAV PMA stimulated) + U1", "strain or isolate": "LAV", "method": "RT activity", "value": "20%"}
{"compound": "CNC(=O)OCc1cccc(COC(=O)NC)n1", "dose": "100 µg/mL", "cells": "MT-4", "strain or isolate": "LAV", "value": "0%"}
{"compound": "CCC(c1cc(=O)[nH]c(SC(C)C)n1)c1c(F)cccc1F", "dose": "0.09 µM", "cells": "MT-4", "strain or isolate": "IIIB", "method": "p24", "value": "99.9%"}
{"compound": "OCCN1CCN(CC/C=C2\\c3ccccc3Sc3ccc(C(F)(F)F)cc32)CC1", "dose": "10 µg/mL", "cells": "MOLT-3", "strain or isolate": "IIIB", "method": "syncytia", "value": "43%"}
{"compound": "C=CCOc1ccccc1OCC(O)CNC(C)C", "dose": "100 µg/mL", "cells": "MT-4", "strain or isolate": "LAV", "value": "0%"}
{"compound": "COc1ccc(CN[C@@H](C(=O)N[C@H]2c3ccccc3C[C@H]2O)[C@H](O)[C@H](Cc2ccccc2)NC(=O)[C@@H](NC(=O)OCc2ccccc2)C(C)(C)C)cc1", "dose": "0.24 µM", "cells": "MT-4", "strain or isolate": "IIIB", "method": "p24", "value": "90%"}
{"compound": "NC(N)=NCCC[C@H](NC(=O)[C@@H](N)Cc1ccc(O)cc1)C(=O)NCC(=O)N1CCC[C@H]1C(=O)NCC=O", "dose": "250 µg/mL", "cells": "HUT", "strain or isolate": "ELI", "method": "p24", "value": "44.8%"}
{"compound": "CN1CCN(CCCN2c3ccccc3Sc3ccc(Cl)cc32)CC1", "dose": "10 µg/mL", "cells": "MT-4", "strain or isolate": "LAV", "value": "99.4%"}
{"compound": "COc1ccc(OC[C@@H]2CNCC[C@H]2c2ccc(F)cc2)cc1", "dose": "4 µg/mL", "cells": "MOLT-3", "strain or isolate": "IIIB", "method": "syncytia", "value": "24%"}
{"compound": "NC(N)=NCCC[C@@H](C=O)NC(=O)CNC(=O)[C@@H]1CCCN1", "dose": "25 µg/mL", "cells": "H9", "strain or isolate": "IIIB", "method": "p24", "value": "0%"}
{"compound": "CN(Cc1cc(Br)cc(Br)c1N)C1CCCCC1", "dose": "100 µg/mL", "cells": "MT-4", "strain or isolate": "LAV", "value": "0%"}
{"compound": "O=C(O)P(=O)(O)O", "dose": "300 µM", "cells": "H9", "strain or isolate": "IIIB", "setting": "2 d", "method": "p24 / antigen", "value": "100%"}
{"compound": "CCC(C)[C@H](NC(=O)[C@H](C(C)C)[C@@H](O)[C@H](O)[C@H](CC1CCCCC1)NC(=O)c1ccccc1SCCCCC[C@@H]1SC[C@@H]2NC(=O)NC21)C(=O)NCc1ccccn1", "dose": "0.01 µM", "cells": "PBMC", "strain or isolate": "D34", "method": "p24", "value": "5%"}
{"compound": "NCC(=O)NCC(=O)NCC=O", "dose": "25 µg/mL", "cells": "H9", "strain or isolate": "IIIB", "method": "p24", "value": "0%"}
{"compound": "COC(=O)[C@@]12Oc3ccc(-c4ccc(O)c5c4O[C@@]4(C(=O)OC)C(=C5O)C(=O)C[C@@H](C)[C@@H]4O)c(O)c3C(O)=C1C(=O)C[C@H](C)[C@H]2O", "dose": "10 µM", "cells": "TZM-bl", "strain or isolate": "SF162", "method": "luciferase", "value": "90.86%"}
{"compound": "CNCCC=C1c2ccccc2CCc2ccccc21", "dose": "1 µg/mL", "cells": "MOLT-3", "strain or isolate": "IIIB", "method": "RT activity", "value": "15%"}
{"compound": "CCC(c1cc(=O)[nH]c(SC2CCCC2)n1)c1c(F)cccc1F", "dose": "0.19 µM", "cells": "MT-4", "strain or isolate": "IIIB", "method": "p24", "value": "99.9%"}
{"compound": "CC(C)[C@H](NS(=O)(=O)N(C)Cc1ccccn1)C(=O)N[C@@H](Cc1ccccc1)[C@@H](O)[C@H](O)[C@H](Cc1ccccc1)NC(=O)[C@@H](NS(=O)(=O)N(C)Cc1ccccn1)C(C)C", "dose": "100 µM", "cells": "MT-4", "strain or isolate": "IIIB", "method": "cytopathic effect", "value": "0%"}
{"compound": "COc1cc(OC)c2c(O)c3c(=O)cc(C)oc3c(-c3c(OC)c4c(cc(O)c5c(O)cc(C)oc54)cc3=O)c2c1", "dose": "10 µM", "cells": "TZM-bl", "strain or isolate": "SF162", "method": "luciferase", "value": "0.3%"}
{"compound": "O=S(=O)(O)c1cc(N=C=S)ccc1CCc1ccc(N=C=S)cc1S(=O)(=O)O", "dose": "50 µg/mL", "cells": "JM", "strain or isolate": "GB8", "method": "p24", "value": "99.9%"}
{"compound": "NC(N)=NCCC[C@H](N)C(=O)NCC(=O)N1CCC[C@H]1C(=O)NCC=O", "dose": "25 µg/mL", "cells": "H9", "strain or isolate": "IIIB", "method": "p24", "value": "51.2%"}
{"compound": "Cc1cn([C@H]2C[C@H](N=[N+]=[N-])[C@@H](CO)O2)c(=O)[nH]c1=O", "dose": "0.268 µg/mL", "cells": "C8166", "strain or isolate": "IIIB", "method": "syncytia", "value": "56%"}
{"compound": "CC(=O)S[C@@H]1CC2=CC(=O)CC[C@]2(C)[C@H]2CC[C@H]3[C@@H](CC[C@@]34CCC(=O)O4)[C@H]12", "dose": "100 µg/mL", "cells": "MT-4", "strain or isolate": "LAV", "value": "0%"}
{"compound": "c1cc(CN2CCCNCCNCCCNCC2)ccc1CN1CCCNCCNCCCNCC1", "dose": "0.1 µM", "cells": "PBMC", "strain or isolate": "SW5 CLADE C R5", "method": "p24", "value": "6%"}
{"compound": "CN1CCCC(CC2c3ccccc3Sc3ccccc32)C1", "dose": "100 µg/mL", "cells": "MT-4", "strain or isolate": "LAV", "value": "0%"}
{"compound": "COc1ccc(OC[C@H]2CNCC[C@@H]2c2ccc(F)cc2)cc1", "dose": "4 µg/mL", "cells": "MOLT-3", "strain or isolate": "IIIB", "method": "p24", "value": "0%"}
{"compound": "NCC(=O)N1CCC[C@H]1C(=O)NCC=O", "dose": "25 µg/mL", "cells": "HUT", "strain or isolate": "ELI", "method": "p24", "value": "0%"}
{"compound": "COc1ccc(OC[C@H]2CNCC[C@@H]2c2ccccc2)cc1", "dose": "4 µg/mL", "cells": "MOLT-3", "strain or isolate": "IIIB", "method": "syncytia", "value": "7%"}
{"compound": "NS(=O)(=O)c1cc(C(=O)O)c(NCc2ccco2)cc1Cl", "dose": "100 µg/mL", "cells": "MT-4", "strain or isolate": "LAV", "value": "0%"}
{"compound": "CCOCn1c(Cc2ccccc2)c(C(C)C)c(=O)[nH]c1=O", "dose": "0.082 µM", "cells": "MT-4", "strain or isolate": "IIIB", "method": "p24", "value": "99.9%"}
{"compound": "CN1CC[C@H](c2c(O)cc(O)c3c(=O)cc(-c4ccccc4Cl)oc23)[C@H](O)C1", "dose": "0.012 µM", "cells": "PM1", "strain or isolate": "IIIB", "method": "p24", "value": "84%"}
{"compound": "NC12CC3CC(CC(C3)C1)C2", "dose": "10 µg/mL", "cells": "MT-4", "strain or isolate": "LAV", "value": "50%"}
{"compound": "O=C1OC(C2OC(=O)c3cc(O)c(O)c(O)c3-c3c(O)c(O)c4oc(=O)c5c(c(O)c(O)c6oc(=O)c3c4c65)-c3c(cc(O)c(O)c3O)C(=O)OCC2O)C2OC(=O)c3c(c(O)c(O)c(O)c3C2O)-c2c1cc(O)c(O)c2O", "dose": "0.2 µg/mL", "cells": "H9", "strain or isolate": "IIIB", "method": "p24", "value": "0%"}

For reference, 3 entries again:

compound,dose,cells,strain or isolate,setting,method,value
CC(C)[C@H](NS(=O)(=O)N(C)Cc1ccccn1)C(=O)N[C@@H](Cc1ccccc1)[C@@H](O)[C@H](O)[C@H](Cc1ccccc1)NC(=O)[C@@H](NS(=O)(=O)N(C)Cc1ccccn1)C(C)C,100 µM,MT-4,IIIB,-,cytopathic effect,0%
OCCN1CCN(CC/C=C2\c3ccccc3Sc3ccc(C(F)(F)F)cc32)CC1,10 µg/mL,MOLT-3,IIIB,-,syncytia,43%
NS(=O)(=O)c1cc(C(=O)O)c(NCc2ccco2)cc1Cl,100 µg/mL,MT-4,LAV,-,-,0%

Inhibition is in % at the dose shown (toxicity tests: loss of growth or viability). An empty or dashed field is not shown.